# Laboratory results as given in PubChem BioAssay AID1721 (National Center for Advancing Translational Sciences (NCATS), 2009).
# Sequences of proteins named here, by UniProt entry; tags and fusion partners are left off.
# UniProt Q27686, whole entry: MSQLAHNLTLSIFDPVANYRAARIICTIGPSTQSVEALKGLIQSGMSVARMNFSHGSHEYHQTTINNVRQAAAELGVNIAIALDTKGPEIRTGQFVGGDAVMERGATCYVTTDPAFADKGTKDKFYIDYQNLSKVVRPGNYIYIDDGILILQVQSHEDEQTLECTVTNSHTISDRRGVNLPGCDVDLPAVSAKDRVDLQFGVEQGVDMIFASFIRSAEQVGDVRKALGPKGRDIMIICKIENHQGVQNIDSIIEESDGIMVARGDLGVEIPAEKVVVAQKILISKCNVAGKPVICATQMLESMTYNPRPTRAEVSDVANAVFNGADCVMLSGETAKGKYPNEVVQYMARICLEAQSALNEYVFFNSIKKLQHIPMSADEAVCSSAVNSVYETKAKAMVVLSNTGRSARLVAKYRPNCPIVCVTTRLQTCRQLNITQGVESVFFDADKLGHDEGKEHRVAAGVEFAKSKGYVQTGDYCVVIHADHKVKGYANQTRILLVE
# This is a selection; strong and weak results do not stand in their true shares. Some salts and complexes are drawn in separate pieces, as the source files them; their charges need not balance. Activity calls are given as the source filed them. Calls come from the whole dose curve; as a rule, active = well fitted inhibition curve with a large enough effect; inconclusive = small, poorly fitted or top-dose-only effect, or another doubt; inactive = no such curve, though single readings can be large or run the other way.
# Target: Pyruvate kinase (Leishmania mexicana) (UniProt Q27686)
# Assay: qHTS Assay for Inhibitors of Leishmania Mexicana Pyruvate Kinase (LmPK)
# Settings: purified LmPK, Kinase-Glo ATP luminescence, 1 h; at 57.5 µM (top of the series)
# Excerpt: NIH Chemical Genomics Center [NCGC] Malcolm Walkinshaw, Hugh Morgan, Linda Gilmore University of Edinburgh, UK MLPCN Grant: 1 R03 MH085697-01 NCGC Assay Overview: Pyruvate kinase (L. Mexicana) (LmPK) enzyme was supplied as a highly purified (>95% pure) sulphate-free preparation from University of Edinburgh, UK and assayed for its ability to generate ATP from ADP using phosphoenolpyruvate (PEP) as a substrate. ATP generation was detected in a coupled reaction by luciferase-mediated luminescence, an ATP-dependent process. […] The enzyme was assayed at an intermediate level of activity to screen for both inhibitors and activators.
# NCGC Assay Protocol Summary: Three uL of enzyme mix (kept on ice) in assay buffer (50 mM Imidazole pH7.2, 50 mM KCl, 7 mM MgCl2, 0.01% Tween 20, 0.05% BSA) containing PEP (0.5 mM final concentration) and LmPK (0.1 nM final concentration) was dispensed into white solid bottom 1,536 well microtiter plates. 23 nL of compound were delivered by a pin tool and 1 uL of ADP mix in assay buffer (r.t; 0.1 mM final ADP concentration) was added. Plates were incubated at room temperature for 1 hour. Two uL of detection mix (Kinase-Glo, Promega; at 4 degree Celsius protected from light) was added and luminescence read by a ViewLux (Perkin Elmer) at 1 second exposure/plate. Data were normalized to the uninhibited and AC100 inhibition (no enzyme). To monitor activation, the first column contained a five-fold concentration of LmPK (0.5 nM).
# % is set by controls: 0 for no effect and ±100 for the full control effect.
row,Structure (SMILES),"activity change, negative = inhibition"
1,CCOC(=O)C(CC)C1=NC(C)(C)Cc2ccccc21.O=[N+]([O-])c1cc([N+](=O)[O-])c(O)c([N+](=O)[O-])c1 (configuration not stated),inactive: -2.94%
2,N/C(=N\O)c1c(N)no[n+]1[O-],inactive: 4.02%
3,O=C(O)c1cccc(Nc2c([N+](=O)[O-])cc([N+](=O)[O-])cc2[N+](=O)[O-])c1,inactive: -1.59%
4,O=[N+]([O-])c1cc([N+](=O)[O-])c(OC2CCCCC2O)c([N+](=O)[O-])c1 (configuration not stated),inactive: 7.79%
5,COc1ccc2c(c1O)-c1c(O)c(OC)cc3c1[C@H](C2)[N+](C)(C)CC3.O=[N+]([O-])c1cc([N+](=O)[O-])c([O-])c([N+](=O)[O-])c1[O-],inactive: 0.381%
6,O=C(OC1CN2CCC1CC2)c1ccc([N+](=O)[O-])cc1 (configuration not stated),inactive: 3.1%
7,O=[N+]([O-])c1cc([N+](=O)[O-])c(NCC2CCS(=O)(=O)C2)c([N+](=O)[O-])c1 (configuration not stated),inactive: 4.93%
